Compound potency records, mixed from different reports. Data source: NIAID ChemDB in PubChem.

Shared fields: growth or infection tests; agent: Influenza A virus; endpoint: EC50

Lines come from different laboratories, so protocols vary.

SMILES,cells,strain or isolate,read by,value
Nc1nc2c(nc(N)n2[C@@H]2O[C@H](CO)[C@@H](O)[C@H]2F)c(=O)[nH]1,MDCK,A/Sweden,plaque count,17 µM
Cc1ccc(O)c(C(=O)NC2CCNCC2)c1,MDCK,H1N1 A/WSN/33 (H1N1),plaque count,>50 µg/mL
Nc1nc(Cl)cc(NCC2(CO)COC2)n1,MDCK,H1N1 A/PR/8/34,plaque count,>410 µM
CC=NC(=N)c1nc(-c2ccc(OC)cc2)n(Cc2ccccc2)n1,MDCK,Ishikawa,cytopathic effect,>100 µg/mL
C[C@H]1CC[C@H]2C(C)(C)C(=O)CC[C@]23Oc2c(c(O)cc4c2CNC4=O)C[C@]13C,MDBK,H1N1 A/WSN/33,,0.006 µM
Nc1ncc(N)c(NCC2(CO)CC(CCc3ccccc3)C2)n1,MDCK,H1N1 A/PR/8/34,plaque count,11–20 µM
CCCC(CCC)C(NC(C)=O)C1C(N=C(N)N)CC(C(=O)O)C1O,MDCK,Influenza A/Victoria/3/75 (H3N2),,0.07 µM
CC=NC(=N)c1nc(-c2ccc(C)cc2)n(Cc2ccccc2)n1,MDCK,Ishikawa,cytopathic effect,>20 µg/mL
Nc1nc(Cl)cc(NCC2(CO)CC(Cc3ccccc3)C2)n1,MDCK,H1N1 A/PR/8/34,plaque count,0.42–1.2 µM
O=C(N[C@H]1CCC23CCC2N(Cc2ccccc2)C3C1)c1cc(Cl)ccc1O,MDCK,H1N1 A/WSN/33 (H1N1),plaque count,>50 µg/mL
N#CNc1nncs1,MDCK,A/Russia,plaque count,0.37 µg/mL
CC(=O)OC1CC[C@@]23Oc4c(c(O)cc5c4C(=O)NC5=O)C[C@]2(C)[C@@H](C)CC[C@H]3C1(C)C,MDBK,H1N1 A/WSN/33,,0.45 µM
CCC,MDCK,USSR/3/85 (H3),,>500 µM
CC(O)C1(CNc2cc(Cl)nc(N)n2)CCC1,MDCK,H1N1 A/PR/8/34,plaque count,180 µM
CCC(CC)O[C@@H]1C=C(C(=O)O)C[C@H](N)[C@H]1NC(C)=O,MDCK,Influenza A/Victoria/3/75 (H3N2),plaque count,0.0006 µM
CC(N)C12CC3CC(CC(C3)C1)C2,MDCK,Influenza A H3N2 isolate 241,ELISA,14 µg/mL
CC(=O)O[C@H]1CC[C@@]23Oc4c(c(O)c(Cl)c5c4CNC5=O)C[C@]2(C)[C@@H](C)CC[C@H]3C1(C)C,MDBK,H1N1 A/WSN/33,,3.5 µM
CC=NC(=N)c1nc(-c2ccc(C)cc2)n(COCCO)n1,MDCK,Ishikawa,cytopathic effect,>100 µg/mL
C[C@@H]1CC[C@@H]2CCCC[C@@H]2N1CCNC(=O)c1cc(Cl)ccc1O,MDCK,H1N1 A/WSN/33 (H1N1),plaque count,0.09 µg/mL
O=c1[nH]cnc2c1ncn2[C@@H]1O[C@H](CO)[C@@H](O)[C@H]1F,CEF,Recombinant A/X31,virus yield,1.4 µM
CCCC(CCC)C(NC(C)=O)C1CC(C(=O)O)CC1N=C(N)N,MDCK,Influenza A/Beijing/32/92 (H3N2),,0.05 µM
Nc1ncnc2c1ncn2[C@@H]1O[C@H](CO)[C@@H](O)[C@H]1F,MDCK,A/Sweden,plaque count,52 µM
Cc1ccc(O)c(C(=O)N[C@H]2CCC34CCC3N(C)C4C2)c1,MDCK,H1N1 A/WSN/33 (H1N1),plaque count,>50 µg/mL
CC=NC(=N)c1nc(-c2cccc(C)c2)n(COCCO)n1,MDCK,Ishikawa,cytopathic effect,>100 µg/mL
Nc1nc2c(=O)[nH]c(Cl)nc2n1[C@@H]1O[C@H](CO)[C@@H](O)[C@H]1F,MDCK,A/Sweden,plaque count,16 µM
COc1c(Cl)nc(N)nc1NCC1(CO)CC(CCc2ccccc2)C1,MDCK,H1N1 A/PR/8/34,plaque count,0.53–0.8 µM
CCC(CC)[C@H](NC(C)=O)[C@@H]1[C@H](O)[C@@H](C(=O)O)C[C@H]1N=C(N)N,MDCK,Influenza A/Shandong/09/93 (H3N2),visual reading,0.03 µM
CC(=O)O[C@H]1CC[C@@]23Oc4c(c(O)c(Br)c5c4CNC5=O)C[C@]2(C)[C@@H](C)CC[C@H]3C1(C)C,MDBK,H1N1 A/WSN/33,,1.6 µM
CCC(CC)[C@H](NC(C)=O)[C@@H]1[C@H](O)[C@@H](C(=O)O)C[C@H]1N=C(N)N,MDCK,H1N1 A/Bayern/07/95,,1 µM
C=C(N=CC)c1nc(-c2ccc(OC)cc2)n(C2O[C@H](CO)[C@@H](O)[C@H](O)[C@H]2O)n1,MDCK,Ishikawa,cytopathic effect,>200 µg/mL
Nc1nc2c(ncn2[C@@H]2O[C@H](CO)[C@@H](O)[C@H]2F)c(=O)[nH]1,CEF,H3N2 A/HONG KONG/1/68,plaque count,0.2 µM
Cc1ccc(O)c(C(=O)NCCN2[C@H](C)CC[C@@H]3CCCC[C@@H]32)c1,MDCK,H1N1 A/WSN/33 (H1N1),plaque count,0.19 µg/mL
CCC(CC)O[C@@H]1C=C(C(=O)O)C[C@H](N)[C@H]1NC(C)=O,MDCK,H1N1 isolate C9D,plaque count,0.7 µg/mL
CN1C2CCC23CC[C@@H](NC(=O)c2cc(Cl)ccc2O)CC13,MDCK,H1N1 A/WSN/33 (H1N1),plaque count,>50 µg/mL
CC(C)(CO)CNc1cc(Cl)nc(N)n1,MDCK,H1N1 A/PR/8/34,plaque count,250 µM
C=C(N=CC)c1nc(-c2cccc(C)c2)n([C@@H]2O[C@H](CO)[C@@H](O)[C@H]2O)n1,MDCK,Ishikawa,cytopathic effect,>100 µg/mL

3 of the rows above, restated:

SMILES	cells	strain or isolate	read by	value
C=C(N=CC)c1nc(-c2cccc(C)c2)n([C@@H]2O[C@H](CO)[C@@H](O)[C@H]2O)n1	MDCK	Ishikawa	cytopathic effect	>100 µg/mL
CC=NC(=N)c1nc(-c2ccc(C)cc2)n(COCCO)n1	MDCK	Ishikawa	cytopathic effect	>100 µg/mL
CCCC(CCC)C(NC(C)=O)C1C(N=C(N)N)CC(C(=O)O)C1O	MDCK	Influenza A/Victoria/3/75 (H3N2)		0.07 µM

ECn: concentration that inhibits the pathogen or its effect by n%. Blank or dashed fields: not listed here. Two numbers with a dash give a range or band.